Values quoted from earlier work, collected in article PMC11121871.

Biological target: TLR4 (Homo sapiens) (UniProt O00206)
Assay: SPR

SARS-CoV-2 spike trimer (from UniProt P0DTC2)
Kd: 300 nM
